A mixed list of measured activities; the numbers were collected in NIAID ChemDB.

All rows: tests in culture; organism: Herpes simplex virus 2; read-out: EC50

Lines come from different laboratories, so protocols vary.

| SMILES | strain or isolate | cell line | read by | result |
|---|---|---|---|---|
| O=C(O)CP(=O)(O)O | PCV-resistant/B | HEL | cytopathic effect | 4.2 µg/mL |
| COc1cc2c(c3c1c(=O)c1cccc(OC)c1n3C)C=CC(C)(C)O2 | - | HEF | plaque count | 5.5 µg/mL |
| O=C(O)CP(=O)(O)O | 91075 | SIRC | plaque count | <100 µM |
| [Cl][Sn]([Cl])([Cl])[c]1ccccc1 | MS | HFF | plaque count | <1 µg/mL |
| O=C(O)P(=O)(O)O | PCV-resistant/A | HEL | cytopathic effect | 16 µg/mL |
| COc1cc(O)c2c(=O)c3ccc(OC)c(O)c3n(C)c2c1 | - | HEF | plaque count | >20 µg/mL |
| Nc1ccn(C[C@@H](CO)OCP(=O)(O)O)c(=O)n1 | PCV-resistant/A | HEL | cytopathic effect | 0.11 µg/mL |
| CCC[CH2][Sn+2][CH2]CCC | MS | HFF | plaque count | <1 µg/mL |
| CC(=O)Oc1cc(OC(C)=O)c2c(=O)c3ccccc3n(C)c2c1 | - | HEF | plaque count | 8.4 µg/mL |
| [CH3][Sn]([CH3])([Br])[Br].c1ccc(-c2nc3ccccc3[nH]2)nc1 | MS | HFF | plaque count | 56 µg/mL |
| CCCCCc1c(OC)cc(O)c2c(=O)c3ccccc3n(C)c12 | - | HEF | plaque count | >20 µg/mL |
| O=C(O)P(=O)(O)O | V12500 | SIRC | plaque count | <500 µM |
| CCCCCC[CH2][Sn]([Cl])([Cl])[CH2]CCCCCC | MS | HFF | plaque count | 17 µg/mL |
| Nc1nc(N)c2ncn(CCOCP(=O)(O)O)c2n1 | G | HEL | cytopathic effect | 0.8 µg/mL |
| COc1cc(O)c2c(=O)c3ccc(OC)c(OC)c3n(C)c2c1 | - | HEF | plaque count | >20 µg/mL |

For reference, 2 entries again:

| SMILES | strain or isolate | cell line | read by | result |
|---|---|---|---|---|
| O=C(O)CP(=O)(O)O | PCV-resistant/B | HEL | cytopathic effect | 4.2 µg/mL |
| COc1cc2c(c3c1c(=O)c1cccc(OC)c1n3C)C=CC(C)(C)O2 | - | HEF | plaque count | 5.5 µg/mL |

ECn is the concentration giving n% inhibition of infection, replication or growth. Blank or dashed fields: not listed here.